Reference: US7319086B1, “Method of prophylaxis and treatment and agents useful for same” (priority 1999, dated 2008)

Assay: solid-phase binding of rHA2 to hemin-coated wells
Experimental: FIGS. 3a and 3b are graphical representations showing binding of the HA2 domain to the heme moiety. […] The absence of contaminating protein within 90 μg of the hemin preparation and the absence of non-degraded subunits of hemoglobin remaining after proteinase-K treatment was verified by SDS-PAGE (data not shown). […] Data are representative of two separate experiments.
The ligand-binding protein was then detected with MAb VA1, followed by a goat anti-mouse AP conjugate, and developed as already described for ELISA. Bovine hemoglobin was used in these experiments. Deuteroporphyrin 1X 2,4 bisethylene glycol, deuteroporphyrin 1X dihydrochloride, deuteroporphyrin 1X disulfonic acid dihydrochloride, and dipyrroles tested were obtained from Porphyrin Products, Utah, USA.

rHA2: recombinant HA2 domain of P. gingivalis RgpA expressed in E. coli as a 6x His-tag fusion
Kd (read-out: Kd of rHA2 binding to hemin-coated wells, solid-phase assay): 16 nM | binding to hemin weaker than binding to hemoglobin (solid-phase assays): approximately 8 fold
